Data source: PubChem BioAssay AID504761 (Drosophila RNAi Screening Center, 2011)
Aim: 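Fly genes whose silencing reduces dengue virus type 2 infection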 (primary screen). Cell system: D.Mel-2 cells from Drosophila. Knock-down reagent: long dsRNA against Drosophila genes. Challenge: infection with dengue virus type 2; dose and infection time not stated. Detection: 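Cells stained for dengue envelope protein and imaged; percent of infected cells per well on duplicate plates, ranked by infection, with stained nuclei counted for cell number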. Direction: infection score: higher = more virus-infected cells; cell count: higher = more cells in the well. Active means: 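Low infection ranks in the two replicates (chance level up to 0.065) followed by a retest with a 1.5-fold or larger significant decrease, p below 0.05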. Calls: active = confirmed: knock-down lowers infection; inactive = not picked or not confirmed.
The deposit covers about 22,000 reagents; shown is a random part of those that have a named target and a result. Of all reagents, 116 (0.52%) were called active. 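Calls depend on retest data that are not deposited; infection was ranked per plate without normalising between plates; the unit of the infection score is not given.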 Raw values are not corrected between plates. Reagents against one gene are numbered here. Further read-outs or replicates are left out here. No sequences are given here. The record does not give: the amount of reagent, the time to read-out.

no.	Gene	reagent no.	infection score, replicate 1	infection score, replicate 2	cell count, replicate 1	outcome
1	Acp62F (Accessory gland protein 62F)	1	0.56	1.22	6301	inactive
2	SmD1 (Small ribonucleoprotein particle protein SmD1)	1	2.07	19	4931	inactive
3	SmD1 (Small ribonucleoprotein particle protein SmD1)	2	10	0.95	1657	inactive
4	Hug (Hugin)	1	1.62	24.2	6293	inactive
5	Hug (Hugin)	2	4.16	2.4	6158	inactive
6	CG8026	1	1.27	5.09	6229	inactive
7	CG8026	2	2.9	11.2	6580	inactive
8	CG16758	1	0.04	0.19	5180	inactive
9	CG16758	2	9.81	9.19	6695	inactive
10	CG16758	3	7.93	18.6	3152	inactive
11	Or85c (Odorant receptor 85c)	1	6.46	8.03	6838	inactive
12	CG12112	1	14	1.14	5836	inactive
13	CG30398	1	0.47	0.18	6576	inactive
14	crol (crooked legs)	1	15.5	9.34	6054	inactive
15	crol (crooked legs)	2	9.27	17.1	6030	inactive
16	crol (crooked legs)	3	5.22	12.3	6765	inactive
17	lama (lamina ancestor)	1	6.89	6.45	6531	inactive
18	cid (centromere identifier)	1	2.43	3.23	5919	inactive
19	cid (centromere identifier)	2			394	inactive
20	temp (tempura)	1	16.2	2.21	5822	inactive
21	Tdc2 (Tyrosine decarboxylase 2)	1	17	2.26	6019	inactive
22	Tdc2 (Tyrosine decarboxylase 2)	2			359	inactive

Records listed so far whose gene name starts with T or t:
Gene	reagent no.	infection score, replicate 1	infection score, replicate 2	cell count, replicate 1	outcome
temp (tempura)	1	16.2	2.21	5822	inactive
Tdc2 (Tyrosine decarboxylase 2)	1	17	2.26	6019	inactive
Tdc2 (Tyrosine decarboxylase 2)	2			359	inactive

More records:
no.	Gene	reagent no.	infection score, replicate 1	infection score, replicate 2	cell count, replicate 1	outcome
23	Cad88C (Cadherin 88C)	1	1.34	19.9	6638	inactive
24	Cad88C (Cadherin 88C)	2	7.63	7.62	3630	inactive
25	Frl (Formin-like)	1	2.37	2.77	5272	inactive
26	Frl (Formin-like)	2	2.96	1.73	5371	inactive
27	Frl (Formin-like)	3	6.49	6.81	4482	inactive
28	Frl (Formin-like)	4	11.4	7.41	4992	inactive
29	Naa60 (N(alpha)-acetyltransferase 60)	1	0.71	1.32	5876	inactive
30	Naa60 (N(alpha)-acetyltransferase 60)	2	2.52	8.25	6103	inactive
31	Wnt4 (Wnt oncogene analog 4)	1	1.96	0.06	5112	inactive
32	Wnt4 (Wnt oncogene analog 4)	2	4.68	9.96	5772	inactive
33	zormin	1	3.83	1.27	6195	inactive
34	zormin	2	3	2.4	6291	inactive
35	zormin	3	4.35	3.42	5860	inactive
36	zormin	4	3.49	2.25	5895	inactive
37	zormin	5	2.35	4.68	6168	inactive
38	zormin	6	4.6	8.24	5498	inactive
39	levy	1	7.71	7.51	6524	inactive
40	puf (puffyeye)	1	0.95	2.14	6076	inactive
41	CG10702	1	16.4	7.37	5825	inactive
42	Sos (Son of sevenless)	1	1.06	0.72	6819	active
43	Sos (Son of sevenless)	2	0.69	5.39	5470	inactive
44	CG13217	1	2.21	17.3	6661	inactive
45	Arf4 (ADP ribosylation factor 4)	1	5.98	0.75	2758	inactive
46	Arf4 (ADP ribosylation factor 4)	2	10.4	6.94	4814	inactive
47	Lon (Lon protease)	1	12.5	9.26	5626	inactive
48	Lon (Lon protease)	2	4.58	7.02	5720	inactive
49	Vago	1	4.21	8.69	6630	inactive
50	Vago	2	1.13	0.58	6842	active
51	Tdg (Thymine DNA glycosylase)	1	1.24	0.02	6374	inactive
52	Tdg (Thymine DNA glycosylase)	2	2.9	5.84	5803	inactive
53	CG30026	1	0.76	0.74	6609	inactive
54	CG30026	2			267	inactive
55	CG31418	1	7.34	2.34	6399	inactive
56	CG31418	2	6.93	2.84	5888	inactive
57	Usp39 (Ubiquitin specific protease 39)	1	7.08	4.46	5681	inactive
58	Usp39 (Ubiquitin specific protease 39)	2	2.81	15.2	5841	inactive
